This data set has as its system HepG2-NTCP cells. Briefly: TMT-based phosphoproteome profiling of HBV-infected vs mock HepG2-NTCP (HBV/mock ratio). The arrangement: species or system human. The note with it: phosphosite abundance ratio of host protein, HBV-infected vs mock HepG2-NTCP, 7dpi, sheet Up-regulated.

B1: Q9Y2H0 1xPhospho [T915(100)] (protein, UniProt Q9Y2H0 1-992, looked up)
Disks large-associated …: MKGLGDSRPRHLSDSLDPPHEPLFAGTDRNPYLLSPTEAFAREARFPGQNTLPGDGLFPLNNQLPPPSSTFPRIHYNSHFEVPEESPFPSHAQATKINRLPANLLDQFEKQLPIHRDGFSTLQFPRGEAKARGESPGRIRHLVHSVQRLFFTKAPSLEGTAGKVGGNGSKKGGMEDGKGRRAKSKERAKAGEPKRRSRSNISGWWSSDDNLDGEAGAFRSSGPASGLMTLGRQAERSQPRYFMHAYNTISGHMLKTTKNNTTELTAPPPPPAPPATCPSLGVGTDTNYVKRGSWSTLTLSHAHEVCQKTSATLDKSLLKSKSCHQGLAYHYLQVPGGGGEWSTTLLSPRETDAAAEGPIPCRRMRSGSYIKAMGDEDSDESGGSPKPSPKTAARRQSYLRATQQSLGEQSNPRRSLDRLDSVDMLLPSKCPSWEEDYTPVSDSLNDSSCISQIFGQASLIPQLFGHEQQVREAELSDQYEAACESACSEAESTAAETLDLPLPSYFRSRSHSYLRAIQAGCSQEEDSVSLQSLSPPPSTGSLSNSRTLPSSSCLVAYKKTPPPVPPRTTSKPFISVTVQSSTESAQDTYLDSQDHKSEVTSQSGLSNSSDSLDSSTRPPSVTRGGVAPAPEAPEPPPKHAALKSEQGTLTSSESHPEAAPKRKLSSIGIQVDCIQPVPKEEPSPATKFQSIGVQVEDDWRSSVPSHSMSSRRDTDSDTQDANDSSCKSSERSLPDCTPHPNSISIDAGPRQAPKIAQIKRNLSYGDNSDPALEASSLPPPDPWLETSSSSPAEPAQPGACRRDGYWFLKLLQAETERLEGWCCQMDKETKENNLSEEVLGKVLSAVGSAQLLMSQKFQQFRGLCEQNLNPDANPRPTAQDLAGFWDLLQLSIEDISMKFDELYHLKANSWQLVETPEKRKEEKKPPPPVPKKPAKSKPAVSRDKASDASDKQRQEARKRLLAAKRAASVRQNSATESADSIEIYVPEAQTRL
modifications: phosphorylated T915
B1: the HBV/mock is on record as 1.326.

B2: Q9BTE7 1xPhospho [S9(100)] (protein, UniProt Q9BTE7 1-237, looked up)
DCN1-like protein 5: MPVKKKRKSPGVAAAVAEDGGLKKCKISSYCRSQPPARLISGEEHFSSKKCLAWFYEYAGPDEVVGPEGMEKFCEDIGVEPENIIMLVLAWKLEAESMGFFTKEEWLKGMTSLQCDCTEKLQNKFDFLRSQLNDISSFKNIYRYAFDFARDKDQRSLDIDTAKSMLALLLGRTWPLFSVFYQYLEQSKYRVMNKDQWYNVLEFSRTVHADLSNYDEDGAWPVLLDEFVEWQKVRQTS
modifications: phosphorylated S9
Take B2: the HBV/mock is on record as 1.693.

B3: Q9UEY8 1xPhospho [S677(100)] (protein, UniProt Q9UEY8 2-706, looked up)
Gamma-adducin: SSDASQGVITTPPPPSMPHKERYFDRINENDPEYIRERNMSPDLRQDFNMMEQRKRVTQILQSPAFREDLECLIQEQMKKGHNPTGLLALQQIADYIMANSFSGFSSPPLSLGMVTPINDLPGADTSSYVKGEKLTRCKLASLYRLVDLFGWAHLANTYISVRISKEQDHIIIIPRGLSFSEATASNLVKVNIIGEVVDQGSTNLKIDHTGFSPHAAIYSTRPDVKCVIHIHTLATAAVSSMKCGILPISQESLLLGDVAYYDYQGSLEEQEERIQLQKVLGPSCKVLVLRNHGVVALGETLEEAFHYIFNVQLACEIQVQALAGAGGVDNLHVLDFQKYKAFTYTVAASGGGGVNMGSHQKWKVGEIEFEGLMRTLDNLGYRTGYAYRHPLIREKPRHKSDVEIPATVTAFSFEDDTVPLSPLKYMAQRQQREKTRWLNSPNTYMKVNVPEESRNGETSPRTKITWMKAEDSSKVSGGTPIKIEDPNQFVPLNTNPNEVLEKRNKIREQNRYDLKTAGPQSQLLAGIVVDKPPSTMQFEDDDHGPPAPPNPFSHLTEGELEEYKRTIERKQQGLEDAEQELLSDDASSVSQIQSQTQSPQNVPEKLEENHELFSKSFISMEVPVMVVNGKDDMHDVEDELAKRVSRLSTSTTIENIEITIKSPEKIEEVLSPEGSPSKSPSKKKKKFRTPSFLKKNKKKEKVEA
modifications: phosphorylated S677
On to B3, for which the HBV/mock is 1.388.

B4: P35659 1xPhospho [S32(100)] (protein, UniProt P35659 2-375, looked up)
Protein DEK: SASAPAAEGEGTPTQPASEKEPEMPGPREESEEEEDEDDEEEEEEEKEKSLIVEGKREKKKVERLTMQVSSLQREPFTIAQGKGQKLCEIERIHFFLSKKKTDELRNLHKLLYNRPGTVSSLKKNVGQFSGFPFEKGSVQYKKKEEMLKKFRNAMLKSICEVLDLERSGVNSELVKRILNFLMHPKPSGKPLPKSKKTCSKGSKKERNSSGMARKAKRTKCPEILSDESSSDEDEKKNKEESSDDEDKESEEEPPKKTAKREKPKQKATSKSKKSVKSANVKKADSSTTKKNQNSSKKESESEDSSDDEPLIKKLKKPPTDEELKETIKKLLASANLEEVTMKQICKKVYENYPTYDLTERKDFIKTTVKELIS
modifications: phosphorylated S32
For B4, the HBV/mock is 2.028.

B5: P35659 2xPhospho [S306(100); S307(100)] (protein, UniProt P35659 2-375, looked up)
Protein DEK: SASAPAAEGEGTPTQPASEKEPEMPGPREESEEEEDEDDEEEEEEEKEKSLIVEGKREKKKVERLTMQVSSLQREPFTIAQGKGQKLCEIERIHFFLSKKKTDELRNLHKLLYNRPGTVSSLKKNVGQFSGFPFEKGSVQYKKKEEMLKKFRNAMLKSICEVLDLERSGVNSELVKRILNFLMHPKPSGKPLPKSKKTCSKGSKKERNSSGMARKAKRTKCPEILSDESSSDEDEKKNKEESSDDEDKESEEEPPKKTAKREKPKQKATSKSKKSVKSANVKKADSSTTKKNQNSSKKESESEDSSDDEPLIKKLKKPPTDEELKETIKKLLASANLEEVTMKQICKKVYENYPTYDLTERKDFIKTTVKELIS
modifications: phosphorylated S306, S307
For B5, the HBV/mock is on record as 4.651.

B6: P35659 3xPhospho [S306(99.6); S307(99.6); S] (protein, UniProt P35659 2-375, looked up)
Protein DEK: SASAPAAEGEGTPTQPASEKEPEMPGPREESEEEEDEDDEEEEEEEKEKSLIVEGKREKKKVERLTMQVSSLQREPFTIAQGKGQKLCEIERIHFFLSKKKTDELRNLHKLLYNRPGTVSSLKKNVGQFSGFPFEKGSVQYKKKEEMLKKFRNAMLKSICEVLDLERSGVNSELVKRILNFLMHPKPSGKPLPKSKKTCSKGSKKERNSSGMARKAKRTKCPEILSDESSSDEDEKKNKEESSDDEDKESEEEPPKKTAKREKPKQKATSKSKKSVKSANVKKADSSTTKKNQNSSKKESESEDSSDDEPLIKKLKKPPTDEELKETIKKLLASANLEEVTMKQICKKVYENYPTYDLTERKDFIKTTVKELIS
modifications: triply phosphorylated incl. S306, S307
On to B6, for which the HBV/mock is 4.308.

B7: P35659 2xPhospho [S] (protein, UniProt P35659 2-375, looked up)
Protein DEK: SASAPAAEGEGTPTQPASEKEPEMPGPREESEEEEDEDDEEEEEEEKEKSLIVEGKREKKKVERLTMQVSSLQREPFTIAQGKGQKLCEIERIHFFLSKKKTDELRNLHKLLYNRPGTVSSLKKNVGQFSGFPFEKGSVQYKKKEEMLKKFRNAMLKSICEVLDLERSGVNSELVKRILNFLMHPKPSGKPLPKSKKTCSKGSKKERNSSGMARKAKRTKCPEILSDESSSDEDEKKNKEESSDDEDKESEEEPPKKTAKREKPKQKATSKSKKSVKSANVKKADSSTTKKNQNSSKKESESEDSSDDEPLIKKLKKPPTDEELKETIKKLLASANLEEVTMKQICKKVYENYPTYDLTERKDFIKTTVKELIS
modifications: diphosphorylated
Take B7: the HBV/mock turned out to be 6.454.

B8: P14868 1xPhospho [S249(100)] (protein, UniProt P14868 1-501, looked up)
Aspartate--tRNA ligase, …: MPSASASRKSQEKPREIMDAAEDYAKERYGISSMIQSQEKPDRVLVRVRDLTIQKADEVVWVRARVHTSRAKGKQCFLVLRQQQFNVQALVAVGDHASKQMVKFAANINKESIVDVEGVVRKVNQKIGSCTQQDVELHVQKIYVISLAEPRLPLQLDDAVRPEAEGEEEGRATVNQDTRLDNRVIDLRTSTSQAVFRLQSGICHLFRETLINKGFVEIQTPKIISAASEGGANVFTVSYFKNNAYLAQSPQLYKQMCICADFEKVFSIGPVFRAEDSNTHRHLTEFVGLDIEMAFNYHYHEVMEEIADTMVQIFKGLQERFQTEIQTVNKQFPCEPFKFLEPTLRLEYCEALAMLREAGVEMGDEDDLSTPNEKLLGHLVKEKYDTDFYILDKYPLAVRPFYTMPDPRNPKQSNSYDMFMRGEEILSGAQRIHDPQLLTERALHHGIDLEKIKAYIDSFRFGAPPHAGGGIGLERVTMLFLGLHNVRQTSMFPRDPKRLTP
modifications: phospho S249
B8: the HBV/mock stood at 1.466.

B9: P25686 1xPhospho [S/Y/T] (protein, UniProt P25686 2-321, looked up)
DnaJ homolog subfamily B …: ASYYEILDVPRSASADDIKKAYRRKALQWHPDKNPDNKEFAEKKFKEVAEAYEVLSDKHKREIYDRYGREGLTGTGTGPSRAEAGSGGPGFTFTFRSPEEVFREFFGSGDPFAELFDDLGPFSELQNRGSRHSGPFFTFSSSFPGHSDFSSSSFSFSPGAGAFRSVSTSTTFVQGRRITTRRIMENGQERVEVEEDGQLKSVTINGVPDDLALGLELSRREQQPSVTSRSGGTQVQQTPASCPLDSDLSEDEDLQLAMAYSLSEMEAAGKKPAGGREAQHRRQGRPKAQHQDPGLGGTQEGARGEATKRSPSPEEKASRC
modifications: phosphorylated
B9: the HBV/mock came out at 1.3534.

B10: Q99543 1xPhospho [S47(99.8)] (protein, UniProt Q99543 1-621, looked up)
DnaJ homolog subfamily C …: MLLLPSAADGRGTAITHALTSASTLCQVEPVGRWFEAFVKRRNRNASASFQELEDKKELSEESEDEELQLEEFPMLKTLDPKDWKNQDHYAVLGLGHVRYKATQRQIKAAHKAMVLKHHPDKRKAAGEPIKEGDNDYFTCITKAYEMLSDPVKRRAFNSVDPTFDNSVPSKSEAKDNFFEVFTPVFERNSRWSNKKNVPKLGDMNSSFEDVDIFYSFWYNFDSWREFSYLDEEEKEKAECRDERRWIEKQNRATRAQRKKEEMNRIRTLVDNAYSCDPRIKKFKEEEKAKKEAEKKAKAEAKRKEQEAKEKQRQAELEAARLAKEKEEEEVRQQALLAKKEKDIQKKAIKKERQKLRNSCKTWNHFSDNEAERVKMMEEVEKLCDRLELASLQCLNETLTSCTKEVGKAALEKQIEEINEQIRKEKEEAEARMRQASKNTEKSTGGGGNGSKNWSEDDLQLLIKAVNLFPAGTNSRWEVIANYMNIHSSSGVKRTAKDVIGKAKSLQKLDPHQKDDINKKAFDKFKKEHGVVPQADNATPSERFEGPYTDFTPWTTEEQKLLEQALKTYPVNTPERWEKIAEAVPGRTKKDCMKRYKELVEMVKAKKAAQEQVLNASRAKK
modifications: phosphorylated S47
In the case of B10, the HBV/mock is reported as 1.384.

Values taken from article PMC9104152, “Phosphoproteomics Unravel HBV Triggered Rewiring of Host Phosphosignaling Events” (International Journal of Molecular Sciences, 2022).
